{"sequences": {"note": "By UniProt entry, the sequences of proteins in these tests, tags left out. Residues count along the entry.", "UniProt A6N857, 1-355": "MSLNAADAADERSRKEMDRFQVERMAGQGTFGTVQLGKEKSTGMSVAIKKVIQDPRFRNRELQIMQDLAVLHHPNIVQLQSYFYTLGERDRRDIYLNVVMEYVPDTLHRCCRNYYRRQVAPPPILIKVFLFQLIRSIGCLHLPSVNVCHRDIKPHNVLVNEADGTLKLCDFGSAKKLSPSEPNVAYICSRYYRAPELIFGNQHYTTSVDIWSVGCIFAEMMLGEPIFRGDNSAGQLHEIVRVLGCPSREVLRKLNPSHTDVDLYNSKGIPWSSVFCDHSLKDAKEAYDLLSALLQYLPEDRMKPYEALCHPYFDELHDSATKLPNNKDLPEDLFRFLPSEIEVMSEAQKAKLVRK"}, "source": "paper PMC6882465", "about": "“Towards discovery of new leishmanicidal scaffolds able to inhibit Leishmania GSK-3” (Journal of Enzyme Inhibition and Medicinal Chemistry, 2019)", "key": {"[1]": {"tested_on": "L. infantum promastigotes", "assay": "Leishmanicidal assay on promastigotes (inhibition of MTT reduction)", "format": "cell-based, Leishmania infantum", "conditions": "for antiparasitic activities (in words): promastigotes; for EC50: read-out: L. infantum promastigotes EC50, 72 h", "experimental": "Leishmania parasites were resuspended with the corresponding drug concentration at 2 × 10^6 parasites/mL (final concentration) in their respective growth media in 96 microwell plates (200 µL/well). The parasites were allowed to growth for 72 h at 26 °C for promastigotes and 96 h at 32 °C for axenic amastigotes. Afterwards, inhibition of proliferation was measured by the inhibition of MTT reduction by the parasites. […] MTT reduction was allowed to proceed for 2 h at the respective temperature, and the resulting formazan solubilised by addition of 50 µL/well of 10% SDS. Afterwards, the plate was read at 595 nm in a BioRad Microplate-reader, model 680. Samples were made by triplicate and assays were repeated at least twice."}, "[2]": {"target": "LdGSK-3 (Leishmania donovani, UniProt A6N857)", "assay": "Inhibition of LdGSK-3 with Kinase Glo", "format": "biochemical", "conditions": "for IC50: read-out: LdGSK-3 IC50"}, "[3]": {"tested_on": "L. pifanoi axenic amastigotes", "assay": "Leishmanicidal assay on axenic amastigotes (inhibition of MTT reduction)", "format": "cell-based, Leishmania pifanoi", "conditions": "for antiparasitic activities (in words): axenic amastigotes; for EC50: read-out: L. pifanoi amast. ax EC50, 96 h"}}, "note": "Like-named read-outs stand apart in the source and are kept apart here."}
{"smiles": "OCCN=c1nc(-c2ccccc2)n(-c2ccccc2)s1", "values": [{"measurement": "antiparasitic activities (in words)", "setting": "[1]; tested form: HBr", "result": "nil antiparasitic activities"}, {"measurement": "EC50", "setting": "[1]; Table 1, tested form: HBr", "result": "> 25", "unit": "µM"}, {"measurement": "IC50", "setting": "[2]; Table 1, tested form: HBr", "result": 0.17, "unit": "µM"}, {"measurement": "LdGSK-3 inhibition (in words)", "setting": "[2]; tested form: HBr", "result": "submicromolar concentrations"}, {"measurement": "antiparasitic activities (in words)", "setting": "[3]; tested form: HBr", "result": "nil antiparasitic activities"}, {"measurement": "EC50", "setting": "[3]; Table 1, tested form: HBr", "result": "> 50", "unit": "µM"}]}
{"smiles": "O=C(CCl)c1scc(Br)c1Br", "values": [{"measurement": "EC50", "setting": "[1]; Table 1", "result": 4.6, "unit": "µM"}, {"measurement": "IC50", "setting": "[2]; Table 1", "result": 1.8, "unit": "µM"}, {"measurement": "EC50", "setting": "[3]; Table 1", "result": 2.2, "unit": "µM"}]}
{"smiles": "Cn1sc(=O)n(Cc2ccccc2)c1=O", "values": [{"measurement": "EC50", "setting": "[1]; Table 1", "result": 10.9, "unit": "µM"}, {"measurement": "IC50", "setting": "[2]; Table 1", "result": 1.1, "unit": "µM"}]}
{"smiles": "c1ccc(-c2nc(=NCCN3CCOCC3)sn2-c2ccccc2)cc1", "values": [{"measurement": "antiparasitic activities (in words)", "setting": "[1]; tested form: 2HBr", "result": "nil antiparasitic activities"}, {"measurement": "EC50", "setting": "[1]; Table 1, tested form: 2HBr", "result": "> 25", "unit": "µM"}, {"measurement": "IC50", "setting": "[2]; Table 1, tested form: 2HBr", "result": 0.24, "unit": "µM"}, {"measurement": "LdGSK-3 inhibition (in words)", "setting": "[2]; tested form: 2HBr", "result": "submicromolar concentrations"}, {"measurement": "antiparasitic activities (in words)", "setting": "[3]; tested form: 2HBr", "result": "nil antiparasitic activities"}, {"measurement": "EC50", "setting": "[3]; Table 1, tested form: 2HBr", "result": "> 50", "unit": "µM"}]}
{"smiles": "Cn1cc(C2=C(C(=O)CBr)C(=O)NC2=O)c2ccccc21", "values": [{"measurement": "EC50", "setting": "[1]; Table 1", "result": "> 50", "unit": "µM"}, {"measurement": "IC50", "setting": "[2]; Table 1", "result": 1.6, "unit": "µM"}, {"measurement": "EC50", "setting": "[3]; Table 1", "result": 6.5, "unit": "µM"}]}
{"smiles": "CCCCCCCCCCCC(=O)NNC(=O)c1c(O)c2ccccc2n(CC)c1=O", "values": [{"measurement": "EC50", "setting": "[1]; Table 1", "result": "> 50", "unit": "µM"}, {"measurement": "LdGSK-3 inhibition (in words)", "setting": "[2]", "result": "inactive"}, {"measurement": "LdGSK-3 % inhibition", "setting": "[2]; Table 1, @10 μM", "result": "<20", "unit": "%@10 μM"}, {"measurement": "EC50", "setting": "[3]; Table 1", "result": 3.6, "unit": "µM"}]}
{"smiles": "CC(=O)C1=C(c2cn(C)c3ccccc23)C(=O)NC1=O", "values": [{"measurement": "EC50", "setting": "[1]; Table 1", "result": "> 50", "unit": "µM"}, {"measurement": "LdGSK-3 inhibition (in words)", "setting": "[2]", "result": "did not inhibit LdGSK-3 activity"}, {"measurement": "LdGSK-3 % inhibition", "setting": "[2]; Table 1, @10 μM", "result": "<20", "unit": "%@10 μM"}, {"measurement": "EC50", "setting": "[3]; Table 1", "result": "> 25", "unit": "µM"}]}
{"smiles": "O=C(CBr)c1scc(Br)c1Br", "values": [{"measurement": "EC50", "setting": "[1]; Table S1", "result": "> 50", "unit": "µM"}, {"measurement": "LdGSK-3 % inhibition", "setting": "[2]; Table S1, @10 µM", "result": 74.3, "unit": "%"}, {"measurement": "EC50", "setting": "[3]; Table S1", "result": "> 50", "unit": "µM"}]}
